Results of unrelated studies side by side (data: NIAID ChemDB).

Common to all: growth or infection tests; agent: HIV-1

Neighbouring rows are from separate reports. ECn is the concentration giving n% inhibition of infection, replication or growth. Blank or dashed fields: not listed here.

SMILES	cells	setting	read by	mutations	measure	strain or isolate	result
O=C(O)CCCCCNC1c2ccc3cc4c5c6c(cc7ccc8cc9cc1c1c9c9c8c7c6c9c6c1c2c3c56)C4	MT-4	-	p24	-	EC50	-	0.5 µM
COc1c(-c2cc(C)[nH]n2)c(O)c(S(=O)(=O)Oc2ccc(F)cc2)c2occc12	CEM-SS	-	cytopathic effect / MTS	-	EC50	RF	0.000047 µM
CCOCn1c(C(=O)c2cccc(C#N)c2)c(CC)c(OC)nc1=O	MT-4	-	MTT	K103N + Y181C	EC50	IIIB	>100 µM
COc1c2ccoc2c(S(=O)(=O)Oc2ccc([N+](=O)[O-])cc2)c2oc(C)cc(=O)c12	CEM-SS	-	cytopathic effect / MTS	-	EC50	RF	0.000084 µM
Nc1cccc(S(=O)(=O)N(CC2CCCC2)C[C@@H](O)CN(CCc2ccccc2)C(=O)O[C@@H]2COC3OCCC32)c1	CEM	-	p24	-	EC50	IIIB	<0.1 µM
COC(=O)Nc1nc2ccc(S(=O)(=O)N(CC(C)C)C[C@@H](O)[C@H](Cc3ccccc3)NC(=O)c3ccc(O)cc3C)cc2[nH]1	MT-4	-	cytopathic effect / MTT	-	EC50	LAI WT	0.079 µM
COCc1nc(Nc2ccc(C#N)cc2)nc(Nc2c(C)cc(/C=C/C#N)cc2C)c1C(=O)NCc1ccccn1	MT4 CMV-EGFP	-	-	-	EC50	IIIB	0.00148 µM
O=c1[nH]c(=S)c2c(n1COCCO)CCCC2	CEM-C113 + CEM/C113	-	cytopathic effect / MTT	-	EC50	BRU	>30 µg/mL
COc1ccc(S(=O)(=O)N(CC(C)C)C[C@@H](O)CCc2ccccc2C(=O)NC(C)(C)C)cc1	CEM	-	p24	-	EC50	IIIB	<1 µM
CC(C)OC(=O)[C@H](C)CNP(=O)(CO[C@H](C)Cn1cnc2c(N)ncnc21)N[C@@H](C)C(=O)OC(C)C	MT4-GFP	50% human serum	fluorescence	-	EC50	-	97.2 µM
C[C@H](CCC=C(c1cc(Cl)c(O)c(C(=O)O)c1)c1cc(Cl)c(O)c(C(=O)O)c1)[C@H]1CCC2C3C(C[C@H](O)[C@@]21C)[C@@]1(C)CC[C@@H](O)C[C@H]1C[C@H]3O	MT-4	-	MTT	-	EC50	IIIB	62.3 µM
CN=C(c1ccccc1)N1CCN(C(=O)C(=O)c2c[nH]c3cccc(F)c23)CC1	HeLa(CD4+) + HeLa	-	luciferase	-	EC50	Luciferase reporter virus	>0.5 µM
Cc1cccc(C)c1OCC(=O)N[C@@H](Cc1ccccc1)[C@H](O)CN(CC(C)C)S(=O)(=O)c1ccc2ncn(CCc3ccccc3)c2c1	MT-4	-	cytopathic effect / MTT	-	EC50	LAI WT	0.398 µM
COc1c2ccoc2c(S(=O)(=O)OC2CCCCC2)c2oc(C)cc(=O)c12	MT-4	-	MTT	-	EC50	IIIB	0.000059 µM
Nc1ncnc2c1ncn2[C@@H]1C=C(Cl)[C@H](CO)[C@H]1CO	MT-2	-	MTT	-	EC50	IIIB	>1 µM
CCCCCCCC(=O)O.CCCCCCCCCCCCCCCCNCC(O)C(O)C(OC1OC(CO)C(O)C(O)C1O)C(O)CO	CEM + CEM-SS	-	MTT	-	EC50	LAI	16 µM
C=CCNC(=O)c1c(COC)nc(Nc2ccc(C#N)cc2)nc1Nc1c(C)cc(/C=C/C#N)cc1C	MT4 CMV-EGFP	-	-	-	EC50	K103N+Y101C	0.0224 µM
COc1c(-c2cc(C)n(C)n2)c(O)c(S(=O)(=O)OC2CCCCC2)c2occc12	CEM-SS	-	cytopathic effect / MTS	-	EC50	RF	0.000046 µM
Cc1cc(S(N)(=O)=O)ccc1NC(=O)COc1ccc(Cl)cc1C(=O)c1cc(F)cc(C(F)(F)F)c1	HELA MAGI	-	luciferase	-	EC50	IIIB	0.0014 µM
CN(C)CCCN=C(c1ccccc1)N1CCN(C(=O)C(=O)c2c[nH]c3c(-n4ccnn4)ncc(F)c23)CC1	HeLa(CD4+) + HeLa	-	luciferase	-	EC50	Luciferase reporter virus	<0.5 µM
Cc1ccc(-c2c(C(OC(C)C)C(=O)O)c(C)nc3ccc(Cl)cc23)cc1C	C8166	-	luciferase / reporter gene	-	EC50	-	<20 µM
C=CCOCn1c(C(F)c2cccc(C#N)c2)c(CC)c(=O)[nH]c1=O	MT-4	-	MTT	-	EC50	IIIB	0.05 µM
CCCCCOC(=O)C(C)(C)N[P@@](=O)(CO[C@H](C)Cn1cnc2c(N)ncnc21)N[C@@H](CC(=O)OC(C)C)C(C)C	MT4-GFP	50% human serum	fluorescence	-	EC50	-	170 µM
C#CCN1CCNC(=O)c2sc3ccc([N+](=O)[O-])cc3c21	OM-10.1	-	p24	-	EC50	-	0.2 µM
COc1c2ccoc2c(S(=O)(=O)Oc2ccc(F)cc2)c2oc(C)cc(=O)c12	CEM-SS	-	cytopathic effect / MTS	-	EC50	RF	0.000081 µM
CCCCCCCCCCCCCCCCCCOC[C@@H](O)COP(=O)(O)C(=O)O	MT-2	-	p24	-	EC50	LAI	1400 µM
CC(C)CN(C[C@@H](O)[C@H](Cc1ccccc1)NC(=O)O[C@H]1CO[C@H]2OCC[C@H]21)S(=O)(=O)c1ccc2ncn(CCO)c2c1	MT-4	-	cytopathic effect / MTT	-	EC50	LAI WT	0.794 µM
COCCNC(=O)c1c(COC)nc(Nc2ccc(C#N)cc2)nc1Oc1c(C)cc(/C=C/C#N)cc1C	MT4 CMV-EGFP	-	-	-	EC50	K103N+Y101C	0.0372 µM
O=C(C(=O)N1CCN(C(=NC2CCCC2)c2ccccc2)CC1)c1c[nH]c2c(-n3ccnn3)ncc(F)c12	HeLa(CD4+) + HeLa	-	luciferase	-	EC50	Luciferase reporter virus	<0.5 µM
CCOCn1c(Cc2ccccc2)c(C(C)C)c(=O)[nH]c1=O	MT-4	-	MTT	EFV	EC50	IIIB	100 µM
COc1c(-c2cc(C)[nH]n2)c(O)c(S(=O)(=O)OC2CCCC2)c2occc12	CEM-SS	-	cytopathic effect / MTS	-	EC50	RF	0.000047 µM
C=C(Cl)CN1CCNC(=O)c2sc3ccc(OC)cc3c21	OM-10.1	-	p24	-	EC50	-	<0.08 µM
CCCCCCCCCCCCCCCC(=O)N(CCCCCCCCCCC(=O)O)C[C@H](O)[C@@H](O)[C@H](O[C@@H]1O[C@H](CO)[C@H](O)[C@H](O)[C@H]1O)[C@H](O)CO	CEM + CEM-SS	-	MTT	-	EC50	LAI	50 µM
COc1c(C(=O)/C=C(/C)Nc2ccc(Cl)cc2)c(O)c(S(=O)(=O)OC2CCCC2)c2occc12	CEM-SS	-	cytopathic effect / MTS	-	EC50	RF	0.000062 µM
CN=C(c1ccccc1)N1CCN(C(=O)C(=O)c2c[nH]c3ccccc23)CC1	HeLa(CD4+) + HeLa	-	luciferase	-	EC50	Luciferase reporter virus	>0.5 µM
CC(C)CC(NS(=O)(=O)c1ccccc1)C(F)(F)C(=O)[C@H](Cc1ccccc1)NC(=O)O[C@H]1CCOC1	CEM	-	p24	-	EC90	IIIB	1 µM
O=C1NCCN(Cc2ccccc2F)c2c1sc1ccc(Cl)cc21	OM-10.1	-	p24	-	EC50	-	<0.002 µM
Cc1cc(Cl)ccc1-c1c(C(OC(C)C)C(=O)O)c(C)nc2ccc(Cl)cc12	C8166	-	luciferase / reporter gene	-	EC50	-	<20 µM
CSc1nc(=O)n(COCCO)c2c1CCCC2	CEM-C113 + CEM/C113	-	cytopathic effect / MTT	-	EC50	BRU	>30 µg/mL
COc1ccc(S(=O)(=O)N(CC(C)C)CC(O)CCN2C[C@H]3CCCC[C@H]3C[C@H]2C(=O)NC(C)(C)C)cc1	CEM	-	p24	-	EC50	IIIB	<1 µM
COc1ccc2ccc3c(c2c1)SC(C)CNC3=O	OM-10.1	-	p24	-	EC50	-	0.2 µM
COCc1nc(Nc2ccc(C#N)cc2)nc(Nc2c(C)cc(/C=C/C#N)cc2C)c1C(=O)NC1CC1	MT4 CMV-EGFP	-	-	-	EC50	K103N + Y181C	0.0219 µM
O=C(C(=O)N1CCN(C(=NC2CCC2)c2ccccc2)CC1)c1c[nH]c2c(-n3ccnn3)ncc(F)c12	HeLa(CD4+) + HeLa	-	luciferase	-	EC50	Luciferase reporter virus	<0.5 µM
Nc1ncnc2c1ncn2[C@@H]1C=C(Br)[C@H](CO)[C@H]1CO	MT-2	-	MTT	-	EC50	IIIB	>1 µM
COCc1nc(Nc2ccc(C#N)cc2)nc(Nc2c(C)cc(/C=C/C#N)cc2C)c1C(=O)NCc1cccnc1	MT4 CMV-EGFP	-	-	-	EC50	L1001+K103N	0.0269 µM
O=c1[nH]c(=O)n(COCc2ccccc2)c2c1CCCC2	CEM-C113 + CEM/C113	-	cytopathic effect / MTT	-	EC50	BRU	>30 µg/mL
CC(C)CN(C(=O)C(=O)C(=O)C(Cc1ccccc1)NC(=O)OC1COCOC1)S(=O)(=O)c1ccccc1	CEM	-	p24	-	EC50	IIIB	<1 µM
Cc1nc2ccc(Br)cc2c(-c2ccc(Cl)cc2)c1C(OCC1CC1)C(=O)O	C8166	-	luciferase / reporter gene	-	EC50	-	<20 µM
COc1c(-c2cc(C)n(-c3ccccc3)n2)c(O)c(S(=O)(=O)OC2CCCC2)c2occc12	MT-4	-	MTT	-	EC50	IIIB	0.000019 µM
NC(=NCCC[C@H](N)C(=O)O)NC1c2ccc3cc4c5c6c(cc7ccc8cc9cc1c1c9c9c8c7c6c9c6c1c2c3c56)C4	PBMC	-	p24	-	EC50	-	230 µM
Cc1cc(Cl)cc(Cl)c1Oc1nc(N)nc(Nc2ccc(C#N)cc2)n1	MT-4	-	cytopathic effect / MTT	-	EC50	IIIB	0.004 µM
CC1(C)CC(=O)C(S(=O)(=O)N(CC2CCCC2)C[C@@H](O)CN(CCc2ccccc2)C(=O)c2ccccc2)C(=O)S1	CEM	-	p24	-	EC90	IIIB	1 µM
CC(C)(C)N=C(c1ccccc1)N1CCN(C(=O)C(=O)c2c[nH]c3ccccc23)CC1	HeLa(CD4+) + HeLa	-	luciferase	-	EC50	Luciferase reporter virus	>0.5 µM
COCc1nc(Nc2ccc(C#N)cc2)nc(Nc2c(C)cc(/C=C/C#N)cc2C)c1C(=O)N(C)CCN(C)C	MT4 CMV-EGFP	-	-	-	EC50	K103N+Y101C	0.525 µM
Cc1nc2ccc(Cl)cc2c(-c2ccc(Cl)cc2)c1C(OC(C)C)C(=O)O	C8166	-	luciferase / reporter gene	-	EC50	-	<20 µM
CCCCOC(=O)[C@H](C)NP(=O)(CO[C@H](C)Cn1cnc2c(N)ncnc21)NC[C@H](C)C(=O)OC(C)C	MT4-GFP	10% human serum	fluorescence	-	EC50	-	19.6 µM
CCCC(C(=O)O)c1c(C)nc2ccc(Cl)cc2c1-c1cc2ccccc2o1	C8166	-	luciferase / reporter gene	-	EC50	-	<20 µM
CC1(C)OB(c2ccc(NC(=O)/N=C(\c3ccccc3)N3CCN(C(=O)C(=O)c4c[nH]c5cccc(F)c45)CC3)cc2)OC1(C)C	HeLa(CD4+) + HeLa	-	luciferase	-	EC50	Luciferase reporter virus	>0.5 µM
COc1ccc2ccc3c(c2c1)N(Cc1ccccc1)CCNC3=O	OM-10.1	-	p24	-	EC50	-	<0.4 µM
C=C1CN(S(=O)(=O)c2ccc(C)cc2)CCCN(Cc2ccccc2)CCCN(S(=O)(=O)c2ccc(C)cc2)C1	MT-4	-	p24	-	EC50	NL4-3	0.7 µg/mL
CC(C)CN(C[C@@H](O)[C@H](Cc1ccccc1)NC(=O)OCc1cccnc1)S(=O)(=O)c1ccc2nc(N)[nH]c2c1	MT-4	-	cytopathic effect / MTT	-	EC50	LAI WT	1.585 µM
CC(C)OC(=O)C[C@H](N[P@](=O)(CO[C@H](C)Cn1cnc2c(N)ncnc21)NC(C)(C)C(=O)OC(C)C)C(C)C	MT4-GFP	50% human serum	fluorescence	-	EC50	-	>2000 µM
CCCCOC(C(=O)O)c1c(C)nc2ccc(Br)cc2c1-c1ccc(Cl)cc1	C8166	-	luciferase / reporter gene	-	EC50	-	<20 µM
COc1cc(O)c2c(c1)C(=O)c1c(cc3c(c1O)-c1c(cc(C)c(C(=O)N[C@H](C)C(=O)O)c1O)[C@H](O[C@@H]1O[C@H](C)[C@H](O)[C@H](O[C@@H]4OC[C@@H](O)[C@H](O)[C@H]4O)[C@H]1O)[C@H]3O)C2=O	MT-4	-	antigen	-	EC50	IIIB	<10 µg/mL
CCCCCCCOC(=O)[C@H](C)NP(=O)(CO[C@H](C)Cn1cnc2c(N)ncnc21)NC[C@H](C)C(=O)OC(C)C	MT4-GFP	10% human serum	fluorescence	-	EC50	-	6.5 µM
C[C@H](CCC=C(c1cc(Cl)c(O)c(C(=O)O)c1)c1cc(Cl)c(O)c(C(=O)O)c1)[C@H]1CC[C@H]2[C@@H]3CC[C@@H]4CCCC[C@]4(C)[C@H]3CC[C@]12C	CEM + CEM-SS	-	syncytia	-	EC50	RF	28 µM
[N-]=[N+]=NCCOCn1c2c(c(=O)[nH]c1=O)CCC2	CEM-C113 + CEM/C113	-	cytopathic effect / MTT	-	EC50	BRU	>30 µg/mL
CC(C)OC(=O)C[C@H](N[P@@](=O)(CO[C@H](C)Cn1cnc2c(N)ncnc21)NC(C)(C)C(=O)OC(C)C)C(C)C	MT4-GFP	10% human serum	fluorescence	-	EC50	-	4.7 µM
Cc1nc2ccc(Cl)cc2c(-c2ccc3ncccc3c2)c1C(OC(C)C)C(=O)O	C8166	-	luciferase / reporter gene	-	EC50	-	<20 µM
O=c1[nH]c2c(c(=O)[nH]1)CCC2	CEM-C113 + CEM/C113	-	cytopathic effect / MTT	-	EC50	BRU	>30 µg/mL